The record followed here is patent US20220119501A1 (INVISISHIELD TECHNOLOGIES, published 2022).

Assay [1] addresses SARS-CoV Spike/S1 Protein (SARS-CoV, UniProt P59594 14-667).
Assay [2] concerns the target S1 subunit polypeptide of SARS-CoV-2 spike protein (isolate 2019-nCoV, WIV4) (SARS-CoV-2 (isolate 2019-nCoV, WIV4), UniProt P0DTC2 16-685). Nature of the assay: phage ELISA, specificity panel (FIG. 2).

B1: anti-S1 (SARS-CoV-2) scFv clone #30 (scFv)
scFv: QSALTQPPSASGSPGQSVTISCTGTSSDVGGYDYVSWYQQHPGKAPKLMIYEVSKRPSGVSNRFSGSKSGNTASLTISGLQAEDEADYYCSSYTSSSTFPYVFGTGTKVTVLGSRGGGGSGGGGSGGGGSLEMAEVQLVESGGGLEQPGGSLRLSCAASGFTFSSYAMSWVRQAPGKGLEWVSAISASGNSTFYADSVKGRFTISRDNSKHTLDLQMNSLRADDTAVYYCARNSDVWGQGTLVTVSSTSGQAGQ
notes: also called phage clone #30
For the molecule B1, the binding result in assay [1] is “no binding”; in assay [2], “binds”.

B2: anti-S1 (SARS-CoV-2) scFv clone #20 (scFv)
scFv: SYVLTQPPSASGTPGQRVTISCSGSSSNIGSNTVNWYQQLPGTAPKLLIYSNNQRPSGVPDRFSASKSGTSASLAISGFQSEDEADYYCAAWDDSLDGYVFGTGTKVTVLGSRGGGGSGGGGSGGGGSLEMAEVQLVQSGAEVKKPGESLKISCKGSGYSFPSYWIGWVRQMPGKGLEWMGIIYPGDSDTRYSPSFQGQVTISADKSISTAYLQWSSLKASDTAMYYCARGSYTYMGGSYDYWGQGTLVTVSSTSGQAGQ
notes: also called phage clone #20
Turning to B2, the binding result in assay [1] is recorded as “no binding”; in assay [2] it was “binds”.

B3: anti-S1 (SARS-CoV-2) scFv clone #13 (scFv)
scFv: QSVLTQPPSASGTPGQRVTISCSGSSSNIGSNYVYWYQQLPGTAPKLLIYRNNQRPSGVPDRFSGSKSGTSASLAISGLRSEDEADYYCAAWDDSLSGPNYVFGTGTKVTVLGSRGGGGSGGGGSGGGGSLEMAQVQLVQSGAEVKKPGSSVKVSCKASGGTFSSYAISWVRQAPGQGLEWMGWISGYNGNTNYAQKLQGRVTMTTDTSTSTAYMELRSLRSDDTAVYYCARTGWSKGEKVTTWGEWFYVDYWGQGTLVTVSSTSGQAGQ
notes: also called phage clone #13
For the molecule B3, the binding result in assay [1] is listed as “no binding”; in assay [2], “binds”.

B4: anti-S1 (SARS-CoV-2) scFv clone #19 (scFv)
scFv: QSALTQPASVSGSPGQSITISCTGTSSDVGGYNYVSWYQQHPGKVPKLMIYEVSNRPSGVSNRFSGSKSGNTASLTISGLQAEDEADYYCSSYTSGDTLVFGGGTKVTVLGSRGGGGSGGGGSGGGGSLEMAELQLVESGGGVVQPGRSPRLSCAASGFTFSNYPMHWVRQAPGKGLEWVAVISYDGNHKYYADSLEGRFSISRDNSKNTLYLQMNSLTAADTAVYYCARGGGMGGLDSWGQGTLVTVSSTSGQAGQ
notes: also called phage clone #19
On to B4, for which the binding result in assay [1] is recorded as “no binding”; in assay [2] it was “binds”.
